Compound potency records, mixed from different reports. Data source: NIAID ChemDB in PubChem.

Shared fields: enzyme or target tests

Blank or dashed fields: not listed here. Fold resistance has wild type as its base. a–b is a range or a potency band. Percent inhibition refers to the dose given; in toxicity tests it is the harm to the cells. ICn is the concentration giving n% inhibition. Lines come from different laboratories, so protocols vary.

smiles | agent | endpoint | strain or isolate | read by | protein | changes | tested at | value
CCOC(=O)C(=O)CC(=O)/C=C/c1cc(-c2ccccc2)cn1Cc1ccc(F)cc1 | HIV-1 | inhibition |  | substrate cleavage / fluorescence | RNase H | Q475A | 100 µM | 17%
CC(C)(C)NC(=O)[C@H]1N(C(=O)[C@@H](O)[C@H](Cc2ccccc2)NC(=O)[C@H](CC(N)=O)NC(=O)COc2ccc3ccccc3n2)CSC1(C)C | HIV-1 | inhibition |  |  | Protease |  | 0.05 µM | 98.2%
CC(C)(C)NC(=O)[C@@H]1C[C@@H]2CCCC[C@@H]2CN1C[C@@H](O)CN(CCc1ccc2c(c1)OCO2)S(=O)(=O)c1ccc(N)cc1 | HIV | IC50 |  |  | Protease |  |  | 1.78 µM
O=C(O)CCc1ccc(-c2ccc(-c3ccc(CCC(=O)O)cc3)cc2)cc1 | HIV-1 | IC50 |  | ELISA | gp41 |  |  | >100 µg/mL
CC(C)=CCN1Cc2cccc3[nH]c(=S)n(c23)C[C@@H]1C | HIV | Ki |  | nucleotide incorporation | Reverse transcriptase |  |  | 0.92 µM
O=C(COc1ccc(NC(=O)CSc2nnnn2-c2ccc(C3CC3)cc2Cl)c(Cl)c1)NCc1cccnc1 | HIV-1 | IC50 | WT | PicoGreen / fluorescence | Reverse transcriptase |  |  | <1 µM
COc1ccc(S(=O)(=O)N(CC(C)C)C[C@H](O)CN2C[C@H]3CCCC[C@H]3C[C@H]2C(=O)NC(C)(C)C)cc1 | HIV | IC50 |  |  | Protease |  |  | 13.83 µM
O=C(/C=C/c1cccn1Cc1ccccc1Cl)CC(=O)C(=O)O | HIV-1 | IC50 |  | substrate cleavage / fluorescence | RNase H | R557A |  | 63 µM
CC(C)(C)c1ccc(-n2nnnc2SCC(=O)Nc2ccc(NC(=O)c3ccccc3Cl)cc2Cl)c(Cl)c1 | HIV-1 | IC50 |  | PicoGreen / fluorescence | Reverse transcriptase | RT-K103 Y181C |  | <1 µM
CCOC(=O)C1CCN(C(=O)[C@@H]2O[C@H]3O[C@@H]2C(=O)N(Cc2ccccc2)[C@H]3Cc2ccccc2)CC1 | HIV-1 | inhibition |  | FRET | Protease |  | 10 µM | 0%
CCC(=C/[C@H](C)C/C=C/C(C)=C/[C@@H](C)C(=O)[C@@H](C)[C@H](O)[C@@H](C)C/C(C)=C/C(=O)O)/C=C/[C@@H]1OC(=O)C=C[C@@H]1C | HIV-1 | IC50 |  | luciferase | Rev:RRE |  |  | 0.0005 µM
CC(C)(C)NC(=O)[C@@H]1C[C@@H]2CCCC[C@@H]2CN1C[C@@H](O)CN(CCc1cccc(N)c1)S(=O)(=O)c1cccc(N)c1 | HIV | IC50 |  |  | Protease |  |  | 10.39 µM
CC(=O)c1ccc(O)c2nc(/C=C/c3cc(O)c(O)c(Cl)c3)ccc12 | HIV | IC50 | HXB2 | strand transfer / gel | Integrase |  |  | 0.53 µM
CC(C)(C)NC(=O)[C@@H]1C[C@@H]2CCCC[C@@H]2CN1C[C@@H](O)CN(CCc1cccc(N)c1)S(=O)(=O)c1ccc(N)cc1 | HIV | IC50 |  |  | Protease |  |  | 7.2 µM
Cc1cc(C)c(-n2nnnc2SCC(=O)Nc2ccc(C#CC(C)(C)O)cc2Cl)c(Cl)c1 | HIV-1 | IC50 |  | PicoGreen / fluorescence | Reverse transcriptase | RT-K103 Y181C |  | <1 µM
NCCCC[C@@H]1NC(=O)[C@@H](CCCN=C(N)N)NC(=O)[C@H](Cc2ccccc2)NC(=O)[C@H](CCCN=C(N)N)NC(=O)[C@H](CCCN=C(N)N)NC1=O | HIV-1 | Ki |  | FRET | Tat:TAR/LTR |  |  | 15.27 µM
CC(C)Cc1cc(-c2ccc(-c3ccc(CCCN)cc3CC(C)C)cc2C(C)C)ccc1OCCN | HIV-1 | IC50 |  | ELISA | gp41 |  |  | >100 µg/mL
C=CC(C)(C)c1[nH]c2ccccc2c1C1=C(O)C(=O)C(c2c(C(C)(C)C=C)[nH]c3ccccc23)=C(O)C1=O | HIV | fold resistance |  |  | Protease | PR-V82T |  | 0.72
CCOC(=O)C(=O)CC(=O)/C=C/c1cccn1Cc1ccc(C)cc1C | HIV-1 | inhibition |  | substrate cleavage / fluorescence | RNase H | N474A | 100 µM | 44%
CC(C)[C@H](N)C(=O)N[C@H](C(=O)N[C@@H](Cc1ccccc1)[C@H](O)C(=O)N[C@@H](Cc1ccccc1)C(=O)N[C@H](C(=O)N[C@H](C(N)=O)C(C)C)C(C)C)C(C)C | HIV-1 | inhibition |  |  | Protease |  | 5 µM | 67.9%
CN[C@@H]1[C@H](O)[C@H](NC)[C@H]2O[C@@]3(O)C(=O)C[C@@H](C)O[C@H]3O[C@@H]2[C@H]1O | HIV-1 | inhibition |  | gel | Rev:RRE |  | 100 µM | 0%
CC(C)(C#Cc1ccc(NC(=O)CSc2nnnn2-c2cc(CC3CC3)ccc2Cl)c(Cl)c1)C(=O)O | HIV-1 | IC50 |  | PicoGreen / fluorescence | Reverse transcriptase | RT-K103 Y181C |  | <1 µM
CC(C)(C)NC(=O)[C@H]1N(C(=O)[C@@H](O)[C@H](Cc2ccccc2)NC(=O)[C@H](CC(N)=O)NC(=O)COc2ccccc2Cl)CSC1(C)C | HIV-1 | inhibition |  |  | Protease |  | 0.05 µM | 97.3%
NCCCC[C@@H]1NC(=O)[C@H](CCCN=C(N)N)NC(=O)[C@H](Cc2ccccc2)NC(=O)[C@@H](CCCN=C(N)N)NC(=O)[C@H](CCCN=C(N)N)NC1=O | HIV-1 | Ki |  | FRET | Tat:TAR/LTR |  |  | 15.24 µM
COc1ccc2nc3cc(Cl)ccc3c(NCCCN(CCCCCCN)CCCCCCN)c2c1 | HIV-1 | IC50 |  | gel | Tat:TAR/LTR |  |  | 0.082 µM
COC1CC[C@@H](OCCCN=C(N)N)[C@@H](COCCCN=C(N)N)O1 | HIV-1 | Ki |  | FRET | Tat:TAR/LTR |  |  | 2.5 µM
COc1ccc(OC)c(C/C=C(\C)CC/C=C(\C)CC/C=C(\C)CC/C=C(\C)CC/C=C(\C)CCC=C(C)C)c1 | HIV-2 | IC90 |  | nucleotide incorporation | Reverse transcriptase |  |  | 10 µM
CC(C)CN(C[C@H](O)CN1C[C@H]2CCCC[C@H]2C[C@H]1C(=O)NC(C)(C)C)S(=O)(=O)c1ccc(N)cc1 | HIV | IC50 |  |  | Protease |  |  | 0.02 µM
CC(C)(C#Cc1ccc(NC(=O)CSc2nnnn2-c2cc(C(C)(C)C)cc(Br)c2Cl)c(Cl)c1)C(=O)O | HIV-1 | IC50 |  | PicoGreen / fluorescence | Reverse transcriptase | RT-K103 Y181C |  | <1 µM
NC[C@H]1O[C@H](O[C@H]2[C@H](O[C@@H]3O[C@H](CO)[C@@H](O)[C@H]3O)[C@@H](O)[C@H](N)C[C@@H]2N)[C@H](N)[C@@H](O)[C@@H]1O | HIV-1 | IC50 |  | gel | Rev:RRE |  |  | <100 µM
CC(C)(C)c1ccc(-n2nnnc2SCC(=O)Nc2ccc(C#CCCCCO)cc2Cl)c(Cl)c1 | HIV-1 | IC50 |  | PicoGreen / fluorescence | Reverse transcriptase | RT-K103 Y181C |  | <1 µM
CC(C)(C)NC(=O)[C@@H]1C2CCCCC2CCN1C(=O)[C@@H](O)[C@H](Cc1ccccc1)NC(=O)[C@H](CS(C)(=O)=O)NC(=O)COc1cccc2ccccc12 | HIV-1 | inhibition |  |  | Protease |  | 0.05 µM | 3.4%
CC(C)(C#Cc1ccc(NC(=O)CSc2nnnn2-c2ccc(C3CC3)cc2Cl)c(Cl)c1)OCCNC1CCC1 | HIV-1 | IC50 |  | PicoGreen / fluorescence | Reverse transcriptase | RT-K103 Y181C |  | <1 µM
CCCN(C[C@H](O)CN1C[C@H]2CCCC[C@H]2C[C@H]1C(=O)NC(C)(C)C)S(=O)(=O)c1ccc(OC)cc1 | HIV | IC50 |  |  | Protease |  |  | 14.8 µM
CC(C)(C#Cc1ccc(NC(=O)CSc2nnnn2-c2cc(C(C)(C)C)cc(Br)c2Cl)c(Cl)c1)NC(=O)c1cc[n+]([O-])cc1 | HIV-1 | IC50 |  | PicoGreen / fluorescence | Reverse transcriptase | RT-K103 Y181C |  | <1 µM
C[S+](C)C[C@H](NC(=O)COc1cccc2ccccc12)C(=O)N[C@@H](Cc1ccccc1)[C@H](O)C(=O)N1CSC(C)(C)[C@H]1C(=O)NC(C)(C)C | HIV-1 | IC50 |  |  | Protease |  |  | <0.05 µM
O=S(=O)(c1cnc(N2CCC(CCCC3CCN(S(=O)(=O)c4c(Cl)ccc5nonc45)CC3)CC2)c(Br)c1)N1CCCNCC1 | HIV-1 | IC50 |  | fluorescence | gp120 + CD4 |  |  | >10 µM
CCOC(=O)NC(C)(C)C#Cc1ccc(NC(=O)CSc2nnnn2-c2ccc(C3CC3)cc2Cl)c(Cl)c1 | HIV-1 | IC50 |  | PicoGreen / fluorescence | Reverse transcriptase | RT-K103 Y181C |  | <1 µM
O=C([C@@H]1O[C@]2(c3ccccc3)CN(C(c3ccccc3)c3ccccc3)C(=O)[C@H]1O2)N1CCN(CCO)CC1 | HIV-1 | inhibition |  | FRET | Protease |  | 1 µM | 0%
CC(C)(C)c1ccc(-n2nnnc2SCC(=O)Nc2ccc(C(=O)NCCN3CCOCC3)cc2Cl)c(Cl)c1 | HIV-1 | IC50 |  | PicoGreen / fluorescence | Reverse transcriptase | RT-K103 Y181C |  | <1 µM
CCN1c2ncc(CCOc3ccc(CC(=O)O)c4c3CCCC4)cc2C(=O)N(C)c2ccc(F)nc21 | HIV-1 | IC50 |  | nucleotide incorporation / radiometric | Reverse transcriptase | RT-K103N Y181C |  | 0.1–1 µM
CCCCCCC[C@@H]1O[C@@H]1CO | HIV-2 | inhibition |  | HPLC | Protease |  | 500 µg/mL | 58%
CCN1c2ncc(CCOc3ccc(/C=C(\C)C(=O)O)c4ccccc34)cc2C(=O)N(C)c2cccnc21 | HIV-1 | IC50 | WT | nucleotide incorporation / radiometric | Reverse transcriptase |  |  | <0.1 µM
CC(C)(C#Cc1ccc(NC(=O)CSc2nnnn2-c2ccc(C3CC3)cc2Cl)c(Cl)c1)C(=O)N1CCC(C(=O)O)CC1 | HIV-1 | IC50 | WT | PicoGreen / fluorescence | Reverse transcriptase |  |  | <1 µM
CCN1c2ncc(CCOc3ccc(/C=C(\C)C(=O)O)c4ccccc34)cc2C(=O)N(C)c2ccc(C)nc21 | HIV-1 | IC50 | WT | nucleotide incorporation / radiometric | Reverse transcriptase |  |  | <0.1 µM
CC(C)[C@H](N)C(=O)N[C@H](C(=O)N[C@@H](Cc1ccccc1)[C@@H](O)C(=O)N(CC(=O)N[C@H](C(=O)N[C@H](C(N)=O)C(C)C)C(C)C)Cc1ccccc1)C(C)C | HIV-1 | inhibition |  |  | Protease |  | 1000 µM | 97.7%
CC(C)(C#Cc1ccc(NC(=O)CSc2nnnn2-c2ccc(C3CC3)cc2Cl)c(Cl)c1)NCc1cc[n+]([O-])cc1 | HIV-1 | IC50 |  | PicoGreen / fluorescence | Reverse transcriptase | RT-K103 Y181C |  | <1 µM
CC(C)(CS(=O)(=O)[O-])[NH2+]C(=O)C(CC(F)(OC(F)(F)C(F)(OC(F)(F)C(F)(OC(F)(F)C(F)(F)C(F)(F)F)C(F)(F)F)C(F)(F)F)C(F)(F)F)C(F)(OC(F)(F)C(F)(OC(F)(F)C(F)(OC(F)(F)C(F)(F)C(F)(F)F)C(F)(F)F)C(F)(F)F)C(F)(F)F | HIV-1 | inhibition |  | ELISA | gp120 |  | 20 µg/mL | 76%
CCCN(C[C@H](O)CN1C[C@H]2CCCC[C@H]2C[C@H]1C(=O)NC(C)(C)C)S(=O)(=O)c1cccc(N)c1 | HIV | IC50 |  |  | Protease |  |  | 49.87 µM
Nc1ncnc2c1ncn2[C@H]1CC[C@@H](COP(=O)(O)OP(=O)(O)OP(=O)(O)O)O1 | HIV | IC50 |  | nucleotide incorporation / radiometric | Reverse transcriptase | RT-F77L Q151M |  | 20 µM
CCN1c2ncc(CCOc3ccc(S(=O)(=O)NCC(=O)O)c4ccccc34)cc2C(=O)N(C)c2cccnc21 | HIV-1 | IC50 |  | nucleotide incorporation / radiometric | Reverse transcriptase | RT-V106A |  | 0.1–1 µM
O=C(/C=C/c1cccn1Cc1ccc(F)cc1)CC(=O)C(=O)O | HIV-1 | IC50 |  | substrate cleavage / fluorescence | RNase H |  |  | 16.1 µM
CC(C)(C)c1ccc(-n2nnnc2SCC(=O)Nc2ccc(C(=O)Nc3ccc(CC(=O)O)cc3)cc2Cl)c(Cl)c1 | HIV-1 | IC50 | WT | PicoGreen / fluorescence | Reverse transcriptase |  |  | <1 µM
Nc1nc2c(ncn2[C@H]2CO[C@@H](COP(=O)(O)OP(=O)(O)OP(=O)(O)O)O2)c(=O)[nH]1 | HIV | Ki |  | radiometric | Reverse transcriptase | RT-K65R Q151M |  | 0.766 µM
Nc1ccn([C@H]2CC[C@@H](COP(=O)(O)OP(=O)(O)OP(=O)(O)O)O2)c(=O)n1 | HIV | IC50 |  | nucleotide incorporation / radiometric | Reverse transcriptase | RT-V77I F116Y Q151M |  | 3.9 µM
COc1ccc(S(=O)(=O)N(CCc2ccccc2)C[C@H](O)CN2C[C@H]3CCCC[C@H]3C[C@H]2C(=O)NC(C)(C)C)cc1 | HIV | IC50 |  |  | Protease |  |  | 4.88 µM
CC(C)C[C@H](CO)NC(=O)[C@H]1O[C@H]2CN(Cc3ccccc3)C(=O)[C@@H]1O2 | HIV-1 | inhibition |  | FRET | Protease |  | 10 µM | 0%
CC(C)(C)c1ccc(-n2nnnc2SCC(=O)Nc2ccc(OCC(=O)NC3CCN(Cc4ccccc4)CC3)cc2Cl)c(Cl)c1 | HIV-1 | IC50 | WT | PicoGreen / fluorescence | Reverse transcriptase |  |  | <1 µM
NC(=O)C[C@H](NC(=O)OCc1ccccc1)C(=O)N[C@@H](Cc1ccccc1)[C@H](O)C(=O)N1CCC[C@H]1C(=O)NC1CCCCC1 | HIV-1 | inhibition |  |  | Protease |  | 5 µM | 90.4%
CCN1c2ncc(CCOc3ccc(CCC(=O)O)c4ccccc34)cc2C(=O)Nc2c(C)cc(F)nc21 | HIV-1 | IC50 |  | nucleotide incorporation / radiometric | Reverse transcriptase | RT-Y188L |  | >1 µM
CC(C)(C)OC(=O)N[C@@H](Cc1ccccc1)C(=O)N[C@@H](CC(N)=O)C(=O)N[C@@H](Cc1ccccc1)[C@@H](O)C(=O)NCC1CCCCC1 | HIV-1 | inhibition |  |  | Protease |  | 1000 µM | 80.5%
COc1cc(/C=C/c2ccc3c(C(C)=O)ccc(O)c3n2)cc([N+](=O)[O-])c1O | HIV | IC50 | HXB2 | 3′ processing / gel | Integrase |  |  | 0.724 µM